According to patent US10202411B2, “3′-substituted methyl or alkynyl nucleosides nucleotides for the treatment of HCV” (priority 2014, dated 2019):

Assays:
[1] = biological target: HCV genotype 1b NS5B protein containing the S282T mutation (Hepatitis C virus genotype 1b (isolate Con1) (HCV), UniProt Q9WMX2, S2701T); experiment: HCV polymerase enzyme assay, S282T mutant; format: biochemical; conditions: read-out: S282T IC50, nucleoside triphosphate form, recombinant HCV genotype 1b NS5B, tested form: triethylammonium (3 Et3NH+)
Text: (§1) Test compounds in the form of nucleoside triphosphates were examined for inhibitory activity against purified HCV polymerase in a standard assay. Bacterial expression constructs encoding the approximately 65 kDa HCV genotype 1b NS5B protein were used to generate recombinant HCV polymerases (with a deletion of the 21 carboxy terminal amino acids). Both the wild-type genotype 1b protein and protein containing the S282T mutation were expressed and purified for use in the enzymatic activity assay.
(§2) The enzymatic activity assay measured the inhibitory effect of increasing concentrations of test compound on the incorporation of α-[^33P]-labeled nucleotide into trichloroacetic acid-precipitable material. Recombinant polymerase and synthetic RNA template were combined in reaction buffer containing ribonucleoside triphosphates, α-[^33P]-labeled nucleotide and eight concentrations of test compound in three-fold dilutions. Reactions were incubated for two hours at 30° C.
(§3) Reactions were terminated by the addition of ice-cold trichloroacetic acid and sodium pyrophosphate to promote precipitation of newly-synthesized ribonucleic acid. Precipitable material from the reactions was collected by filtration onto 96-well filter plates, washed extensively with water, and quantified by liquid scintillation.
(§4) The inhibitory activity of test compounds was determined by fitting results to dose-response curves using XLfit software.

[2] = biological target: wild-type HCV genotype 1b NS5B protein (Hepatitis C virus genotype 1b (isolate Con1) (HCV), UniProt Q9WMX2); experiment: HCV polymerase enzyme assay, wild-type; format: biochemical
Text: as §1, §2, §3, §4

[3] = read-out: Wild-Type IC50, nucleoside triphosphate form, recombinant HCV genotype 1b NS5B, tested form: triethylammonium (3 Et3NH+)

SMILES | pIC50 [2, 3] | other results
Nc1nc(N)c2ncn([C@@H]3O[C@H](COP(=O)(O)OP(=O)(O)OP(=O)(O)O)[C@@H](CO)[C@H]3O)c2n1 | 6.00 to 6.60 | pIC50 [1]: > 6.60
O=c1ccn([C@@H]2O[C@H](COP(=O)(O)OP(=O)(O)O)[C@@H](CO)[C@H]2O)c(=O)[nH]1 | – | pIC50 ([2]; read-out: Wild-Type IC50, nucleoside triphosphate form, recombinant HCV genotype 1b NS5B, tested form: triethylammonium (2 Et3NH+)): 5.00 to 6.00
O=c1ccn([C@@H]2O[C@H](COP(=O)(O)OP(=O)(O)OP(=O)(O)O)[C@@H](CF)[C@H]2O)c(=O)[nH]1 | > 6.60 | pIC50 [1]: > 6.60
O=c1ccn([C@@H]2O[C@H](COP(=O)(O)OP(=O)(O)OP(=O)(O)O)[C@@H](CO)[C@H]2O)c(=O)[nH]1 | > 6.60 | pIC50 [1]: > 6.60
Cc1cn([C@@H]2O[C@H](COP(=O)(O)OP(=O)(O)OP(=O)(O)O)[C@@H](CO)[C@H]2O)c(=O)[nH]c1=O | 6.00 to 6.60 | –
O=c1ccn([C@@H]2O[C@H](COP(=O)(O)OP(=O)(O)OP(=O)(O)O)[C@@H](C(F)F)[C@H]2O)c(=O)[nH]1 | 5.00 to 6.00 | –
O=c1ccn([C@@H]2O[C@H](COP(=O)(O)O)[C@@H](CO)[C@H]2O)c(=O)[nH]1 | – | pIC50 ([2]; read-out: Wild-Type IC50, nucleoside triphosphate form, recombinant HCV genotype 1b NS5B, tested form: triethylammonium (Et3NH+)): < 5.00
O=c1ccn([C@@H]2O[C@H](COP(=O)(O)OP(=O)(O)OP(=O)(O)O)[C@@H](CO)[C@H]2F)c(=O)[nH]1 | 5.00 to 6.00 | –
Nc1nc2c(ncn2[C@H]2C[C@H](CO)[C@@H](COP(=O)(O)OP(=O)(O)OP(=O)(O)O)O2)c(=O)[nH]1 | < 5.00 | –
Nc1nc2c(nnn2[C@@H]2O[C@H](COP(=O)(O)OP(=O)(O)OP(=O)(O)O)[C@@H](CO)[C@H]2O)c(=O)[nH]1 | < 5.00 | –
O=c1ccn([C@H]2C[C@H](CO)[C@@H](COP(=O)(O)OP(=O)(O)OP(=O)(O)O)O2)c(=O)[nH]1 | < 5.00 | –

pIC50: −log10 of the molar value. Like-named read-outs stand apart in the source and are kept apart here.
